Results of unrelated studies side by side (data: NIAID ChemDB).

All rows: growth or infection tests; organism: HIV-1; cells: MT-2; endpoint: EC50

a–b is a range or a potency band.

SMILES,strain,mutations,method,setting,value
Cc1nc(C(CN)NC(=O)C(=O)Nc2ccc3c(c2)OCO3)sc1CO,IIIB,-,p24 / ELISA,-,>79 µM
Cc1cn([C@H]2C=C[C@@](C)(CO)O2)c(=O)[nH]c1=O,IIIB,-,cytopathic effect,-,>100 µM
CC(=O)c1ccc(S(=O)(=O)N(CC(C)C)C[C@@H](O)[C@H](Cc2ccccc2)NC(=O)O[C@H]2CO[C@H]3OCC[C@H]32)cc1,LAI,-,MTT / absorbance,-,0.002 µM
CC(C)C1=C2[C@H]3CC[C@@H]4[C@@]5(C)CC[C@H](OC(=O)[C@H]6C[C@@H](C(=O)O)C6(C)C)C(C)(C)[C@@H]5CC[C@@]4(C)[C@]3(C)CC[C@@]2([C@@H](O)CNCc2ccc(Cl)cc2OCCN2CCS(=O)(=O)CC2)CC1=O,92HT599,-,p24 / ELISA,-,<1 µM
O=C(NC12CCC(CC1)Cn1c2nc(C(=O)NCc2ccc(F)cc2)c(O)c1=O)c1ccon1,NL4-3,(delta)nef,luciferase,pseudotyped,<0.01 µM
Nc1nc(Cl)c2ncn(CCCO)c2n1,LAV-1,-,RT activity,-,>100 µM
Cc1ncnn1-c1cc(F)ccc1CNC(=O)c1nc2n(c(=O)c1O)CCCOC21CCN(C(=O)OCc2ccccc2)CC1,NL4-3,-,luciferase / reporter gene,-,0.001–0.01 µM
COc1cc(N=Nc2cc(S(=O)(=O)O)cc3cc(S(=O)(=O)O)cc(O)c23)c(C)cc1Nc1nc(Nc2ccccc2)nc(Nc2ccccc2)n1,IIIB,-,p24,-,11.39 µM
CN(C)C(=O)C(=O)N1CCC2(CC1)NCCn1c2nc(C(=O)NCc2ccc(F)cc2)c(O)c1=O,NL4-3,-,luciferase / reporter gene,-,0.01–0.1 µM
CCCCCCCCCCCCCCCCCCOC[C@H](COP(=O)(O)C(=O)O)OC,LAI,-,p24,-,280 µM
CC(C)CN(C[C@@H](O)[C@H](Cc1ccccc1)NC(=O)O[C@H]1CO[C@H]2OCC[C@H]21)S(=O)(=O)c1ccc(-c2cnc([C@@H](C)O)o2)cc1,LAI,-,MTT / absorbance,-,0.0032 µM
CS(=O)(=O)N1CCC2(CC1)OCCn1c2nc(C(=O)NCc2ccc(F)cc2)c(O)c1=O,NL4-3,-,luciferase / reporter gene,-,0.001–0.01 µM
O=c1cc(CCl)nc2c3ncn([C@H]4C[C@H](O)[C@@H](COP(=O)(O)O)O4)c3ncn12,LAV-1,-,RT activity,-,>200 µM
C=C(C)[C@@H]1CC[C@]2(NC(=O)C3CC3)CC[C@]3(C)[C@H](CC[C@@H]4[C@@]5(C)CC[C@H](OC(=O)CC(C)(C)C(=O)O)C(C)(C)[C@@H]5CC[C@]43C)[C@@H]12,IIIB,-,RT activity,-,>0.199 µM
CSCC[C@H](N)C(=O)N[C@@H](CC(C)C)C(=O)N[C@H](Cc1ccccc1)C(=O)N[C@H](C(=O)N[C@H](Cc1ccccc1)C(=O)N1CCC[C@H]1C(=O)O)C(C)C,IIIB,-,p24,-,17.48 µg/mL
CC(O)Cn1cnc2cnc(N)nc21,LAV-1,-,RT activity,-,>100 µM
CN(C)C(=O)C(=O)NC12CCC(CC1)Cn1c2nc(C(=O)NCc2ccc(N(C)C)cc2)c(O)c1=O,NL4-3,(delta)nef,luciferase,pseudotyped,<0.01 µM
O=C(O)[C@H]1O[C@@H](Oc2cc3oc(-c4ccc(O)cc4)cc(=O)c3c(O)c2O)[C@H](O)[C@@H](O)[C@@H]1O,74V,-,p24,-,253 µM
C=Cc1c(C)c2cc3[nH]c(cc4nc(cc5nc(cc1[nH]2)C(C)=C5CCC(=O)O)C(CCC(=O)O)=C4C)c(C)c3C=C,IIIB,-,p24,-,1.22 µg/mL
Cc1ncnn1-c1cc(F)ccc1CNC(=O)c1nc2n(c(=O)c1O)CCOC21CCN(C(=O)C(=O)N(C)C)C1,NL4-3,-,luciferase / reporter gene,-,≥0.1 µM
C=C1CN(S(=O)(=O)c2ccc(C)cc2)CCCN(Cc2ccccc2)CCCN(S(=O)(=O)c2ccc(C)cc2)C1,AZT-resistant,-,-,-,2 µM
CC(C)C1=C2[C@H]3CC[C@@H]4[C@@]5(C)CC[C@H](OC(=O)[C@H]6C[C@@H](C(=O)O)C6(C)C)C(C)(C)[C@@H]5CC[C@@]4(C)[C@]3(C)CC[C@@]2(CCNCC(C)(C)NC(=O)c2ccc3ccccc3n2)CC1=O,92HT599,-,p24 / ELISA,-,<1 µM
O=c1[nH]c(=O)n([C@@H]2CO[C@H](CO)O2)cc1I,IIIB,-,cytopathic effect / MTT,-,>100 µM
Cc1cc(CNC(=O)c2nc3n(c(=O)c2O)CC2CCC3(NC(=O)c3cccnn3)CC2)ccc1F,NL4-3,(delta)nef,luciferase,pseudotyped,<0.001 µM
C=Cc1c(C)c2cc3[nH]c(cc4nc(cc5nc(cc1[nH]2)C(C)=C5CCC(=O)O)C(CCC(=O)O)=C4C)c(C)c3C=C,-,-,p24,-,2.17 µM
CC(C)C1=C2[C@H]3CC[C@@H]4[C@@]5(C)CC[C@H](OC(=O)[C@H]6C[C@@H](C(=O)O)C6(C)C)C(C)(C)[C@@H]5CC[C@@]4(C)[C@]3(C)CC[C@@]2([C@@H](O)CNC(=O)c2ccc3nc[nH]c3c2)CC1=O,92HT599,-,p24 / ELISA,-,<1 µM
Nc1ncc2ncn(CCCO)c2n1,LAV-1,-,RT activity,-,>100 µM
C#C[C@@]1(CO)C=C[C@H](n2cc(C)c(=O)[nH]c2=O)O1,IIIB,-,cytopathic effect,-,0.2 µM
CC(C)C1=C2[C@H]3CC[C@@H]4[C@@]5(C)CC[C@H](OC(=O)[C@H]6C[C@@H](C(=O)O)C6(C)C)C(C)(C)[C@@H]5CC[C@@]4(C)[C@]3(C)CC[C@@]2(CCNCC(C)(C)NC(=O)c2ccc(Cl)c(Cl)c2)CC1=O,92HT599,-,p24 / ELISA,-,<1 µM
Nc1ncnc2c1ncn2[C@@H]1O[C@H](CO)C=C1F,-,-,-,-,2.2 µM
CC[C@H](C)[C@H](NC(=O)c1ccccc1SSc1ccccc1C(=O)N[C@H](C(=O)O)[C@@H](C)CC)C(=O)O,IIIB,-,XTT,-,6 µM
Cn1nc(NS(C)(=O)=O)c2c(Cl)ccc(-n3c([C@H](Cc4cc(F)cc(F)c4)NC(=O)Cn4nc(C(F)F)c5c4C(F)(F)[C@@H]4C[C@H]54)nc4cc(-c5ccc(F)c(C(=O)O)c5)ccc4c3=O)c21,NL4-3,-,luminescence,-,10 µM
CC(C)C1=C2[C@H]3CC[C@@H]4[C@@]5(C)CC[C@H](OC(=O)[C@H]6C[C@@H](C(=O)O)C6(C)C)C(C)(C)[C@@H]5CC[C@@]4(C)[C@]3(C)CC[C@@]2(CC(=O)NC(F)(F)c2ccccc2)CC1=O,92HT599,-,p24 / ELISA,-,<1 µM
C=C(C)[C@@H]1CC[C@]2(NC(C)=O)CC[C@]3(C)[C@H](CC[C@@H]4[C@@]5(C)CC[C@H](OC(=O)CC(C)(C)C(=O)O)C(C)(C)[C@@H]5CC[C@]43C)[C@@H]12,IIIB,-,RT activity,-,>0.199 µM
CC(C)C1=C2[C@H]3CC[C@@H]4[C@@]5(C)CC[C@H](OC(=O)[C@H]6C[C@@H](C(=O)O)C6(C)C)C(C)(C)[C@@H]5CC[C@@]4(C)[C@]3(C)CC[C@@]2(CCNC(=O)c2nc3ccccc3[nH]2)CC1=O,92HT599,-,p24 / ELISA,-,<1 µM
CC(C)=CCOc1cc(NC(=S)c2ccoc2C)ccc1Cl,IIIB,-,p24 / RT activity,-,0.008 µM
COc1cc(N=Nc2cc(S(=O)(=O)O)cc3cc(S(=O)(=O)O)cc(O)c23)c(C)cc1Nc1nc(Nc2ccncc2)nc(Nc2ccncc2)n1,IIIB,-,cytopathic effect / XTT,-,28.52 µM
CC(CO)n1cnc2c(Cl)ncnc21,LAV-1,-,RT activity,-,>100 µM
CC(C)C1=C2[C@H]3CC[C@@H]4[C@@]5(C)CC[C@H](OC(=O)[C@H]6C[C@@H](C(=O)O)C6(C)C)C(C)(C)[C@@H]5CC[C@@]4(C)[C@]3(C)CC[C@@]2([C@@H](O)CNC(=O)C(C)(CCCN)NC(=O)c2ccc(Cl)cc2)CC1=O,92HT599,-,p24 / ELISA,-,<1 µM
C=C(C)[C@@H]1CC[C@]2(NC(=O)N[C@@H](C(=O)O)C(C)C)CC[C@]3(C)[C@H](CC[C@@H]4[C@@]5(C)CC[C@H](OC(=O)CC(C)(C)CC(=O)O)C(C)(C)[C@@H]5CC[C@]43C)[C@@H]12,IIIB,-,-,-,<0.199 µM

A second listing of 5 rows from above:

SMILES,strain,mutations,method,setting,value
O=c1cc(CCl)nc2c3ncn([C@H]4C[C@H](O)[C@@H](COP(=O)(O)O)O4)c3ncn12,LAV-1,-,RT activity,-,>200 µM
CCCCCCCCCCCCCCCCCCOC[C@H](COP(=O)(O)C(=O)O)OC,LAI,-,p24,-,280 µM
C#C[C@@]1(CO)C=C[C@H](n2cc(C)c(=O)[nH]c2=O)O1,IIIB,-,cytopathic effect,-,0.2 µM
CC(C)=CCOc1cc(NC(=S)c2ccoc2C)ccc1Cl,IIIB,-,p24 / RT activity,-,0.008 µM
Nc1ncc2ncn(CCCO)c2n1,LAV-1,-,RT activity,-,>100 µM

Lines come from different laboratories, so protocols vary. ECn is the concentration giving n% inhibition of infection, replication or growth. An empty or dashed field is not shown.